Columns and labels:
[1] = system: Y181C RT RNase H function; assay: RNase H activity of mutated RT Y181C; assay type: biochemical, HIV-1; settings: vs wt RT
Method: (§1) Amino acid substitutions were introduced into the p66 HIV-1 RT subunit coded in a p6HRT-prot plasmid using the QuikChange protocol (Agilent Technologies Inc., Santa Clara, CA).
(§2) The RT-associated RNase H activity of wt and mutated HIV RTs was measured as described, in 100 µL reaction volume containing 50 mM Tris HCl pH 7.8, 6 mM MgCl2, 1 mM dithiothreitol (DTT), 80 mM KCl, hybrid RNA/DNA (5’-[…]-3’-Fluorescein, 5’-[…]-3’-Dabcyl), and different amounts of enzymes according to a linear range of dose-response curve—20 ng of wt RT; 50 ng K103N RT; 100 ng V108A RT; 4 ng Y181C RT; 100 ng Q475A RT; 100 ng A502F RT. The reaction mixture was incubated for 1 h at 37 °C, the reaction was stopped by addition of EDTA and products were measured with a Victor 3 (Perkin) at 490/528 nm.

[2] = system: K103N RT RNase H function; assay: RNase H activity of mutated RT K103N; assay type: biochemical, HIV-1; settings: vs wt RT
Method: as §1, §2

[3] = system: V108A RT RNase H function; assay: RNase H activity of mutated RT V108A; assay type: biochemical, HIV-1; settings: vs wt RT
Method: as §1, §2

[4] = Mg2+ coordination, UV spectra; assay type: physicochemical; settings: 100 µM compound, 6 mM MgCl2
V108A RT RDDP activity = assay type: biochemical, HIV-1; settings: IC50 mutated RT / IC50 wt RT

CC(C)c1ccc(O)c(=O)c(O)c1 [BTP, beta-Thujaplicinol, reference compound]
RNase H Fold [1]: 1.2
RNase H Fold [2]: 1.2
RNase H Fold [3]: 1.8

Cc1ccc(Cl)cc1Nc1nc(C(F)(F)F)ccc1C(=O)Oc1ccc(Cl)cc1 [Compound 13]
effect of Mg2+ on UV spectrum [4]: not affected

COc1cc(OC)cc(OC(=O)c2ccc(C(F)(F)F)nc2Nc2cc(Cl)ccc2C)c1 [Compound 21]
RNase H Fold [1]: 0.8
RNase H Fold [2]: 3.7
RDDP Fold (V108A RT RDDP activity): 5.1
effect of Mg2+ on UV spectrum [4]: not affected
RNase H Fold [3]: >6.8

Cc1cccc(NC(=O)c2ccc(C(F)(F)F)nc2Nc2cc(Cl)ccc2C)c1 [Compound 29]
shift in the peak of absorbance in presence of Mg2+ [4]: 17 nm

COc1cc(NC(=O)c2ccc(C(F)(F)F)nc2Nc2cc(Cl)ccc2C)cc(OC)c1 [Compound 34]
effect of Mg2+ on UV spectrum [4]: moderate hyperchromic effect, but not a shift

COc1cc(NC(=O)c2ccc(C(F)(F)F)nc2Nc2cc(Cl)ccc2C)cc(OC)c1OC [Compound 36]
effect of Mg2+ on UV spectrum [4]: not affected

Cc1ccc(Cl)cc1Nc1nc(C(F)(F)F)ccc1C(=O)N1CCN(c2ccc(Cl)c(Cl)c2)CC1 [Compound 52, (2-((5-Chloro-2-methylphenyl)amino)-6-(trifluoromethyl)pyridin-3-yl)(4-(3,4-dichlorophenyl)piperazin-1-yl)methanone]
effect of Mg2+ on UV spectrum [4]: moderate hyperchromic effect, but not a shift
